## RC index of single-base changes in HIV-1 RT

Values reported by Al-Mawsawi et al. 2014 (doi:10.1186/s12977-014-0124-6).

Protein: RT of HIV-1 NL4-3, numbered from its first residue.
Effects on overlapping genes or RNA elements are not listed.

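Seven fragments of pNL4-3 were mutated by error-prone PCR, and each virus pool was passaged in CEM T cells. Sequencing gave the RC index: frequency after two rounds over frequency in the input plasmid.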

RC index: lower means poorer replication; rough cut-offs are 0.1 (lethal) and 0.2 (tolerated). Each entry names the wild-type residue, its position and the residue put in its place. Input reads are the counts in the plasmid library. Base changes are numbered along pNL4-3. An index over 1, which the authors read as above wild type, was rare (1.9% of all changes in the genome). Since each clone held several changes (about five per kb), neutral changes can read low.

substitution	base	input reads	RC index
L34I	T2649A	615	0.0485
K390I	A3718T	299	0.0799
T253N	C3307A	140	0.142
G543E	G4177A	206	0.454
G213R	G3186A	288	0.287
T240I	C3268T	309	0.101
N494K	C4031G	68	0.0279
D511Y	G4080T	322	0.0916
W266R	T3345A	433	0.00347
I178T	T3082C	189	0.119
K101I	A2851T	205	0.0203
K154T	A3010C	86	0.0802
V254L	G3309C	44	0.0643
V293A	T3427C	196	0.138
Y181F	A3091T	302	0.0343
V245L	G3282T	122	0.0464
E370A	A3658C	56	0.0474
N136I	A2956T	216	0.0289
Q547K	C4188A	59	0.306
W24C	G2621T	78	0.109
K451N	A3902T	122	0.0299
V108A	T2872C	246	0.0423
M16I	G2597A	233	0.640
E396K	G3735A	105	1.01
K122R	A2914G	267	0.0312
K476R	A3976G	208	0.0731
Y501H	T4050C	87	0.0874
N255D	A3312G	283	0.0800
A327P	G3528C	34	0.228
N137I	A2959T	287	0.0181
P157S	C3018T	443	0.0857
I180V	A3087G	329	0.0629
G155E	G3013A	54	0.351
A408G	C3772G	48	0.111
M41I	G2672T	183	0.116
P217L	C3199T	400	0.0564
P392H	C3724A	274	0.0872
T58I	C2722T	457	0.0783
I132V	A2943G	461	0.0203
K385M	A3703T	293	0.0634
I411S	T3781G	76	0.105
L503S	T4057C	173	0.0659
Q340H	A3569T	462	0.0713
N348S	A3592G	209	0.0185
Y188F	A3112T	157	0.108
I522L	A4113T	294	0.0390
K154I	A3010T	307	0.0169
S117P	T2898C	682	0.0580
F171S	T3061C	294	0.0763
Q278K	C3381A	47	0.101
E40G	A2668G	172	0.0991
Y271C	A3361G	406	0.0185
A62V	C2734T	255	0.421
Y427F	A3829T	58	0.0629
A538P	G4161C	110	0.0894
K66R	A2746G	109	0.0937
L80V	C2787G	45	0.189
D443Y	G3876T	140	0.0652
V90A	T2818C	204	0.134
V21A	T2611C	292	0.0657
S268G	A3351G	436	0.0138
R206G	A3165G	331	0.0738
S156T	T3015A	605	0.0314
I63M	A2738G	99	0.103
P55T	C2712A	304	0.228
V531I	G4140A	328	0.180
K126R	A2926G	346	0.0361
P468H	C3952A	163	0.163
W229R	T3234C	325	0.0463
S68I	G2752T	258	0.0396
A272S	G3363T	189	0.0556
S3C	A2556T	319	0.0768
L34S	T2650C	236	0.0542
N494D	A4029G	308	0.0432
P226S	C3225T	372	0.0859
Q336H	A3557T	329	0.0471
V179A	T3085C	80	0.172
K263N	A3338T	478	0.0157
D498V	A4042T	202	0.0564
K374I	A3670T	427	0.0808
R356S	A3617T	215	0.0451
Q428L	A3832T	300	0.0426
Y457F	A3919T	188	0.0388
S163N	G3037A	568	0.170
T131A	A2940G	156	0.0534
T128N	C2932A	218	0.0477
L120I	T2907A	361	0.0115
D549Y	G4194T	196	0.117
P97H	C2839A	269	0.0619
E413G	A3787G	364	0.0438
M16L	A2595T	309	0.0552
Q161H	G3032T	189	0.100
V108I	G2871A	490	0.134
I132L	A2943T	259	0.0161
R557S	G4220T	150	0.120

Extract of 6 entries:

| substitution | base | input reads | RC index |
|---|---|---|---|
| D498V | A4042T | 202 | 0.0564 |
| W229R | T3234C | 325 | 0.0463 |
| A272S | G3363T | 189 | 0.0556 |
| D511Y | G4080T | 322 | 0.0916 |
| L503S | T4057C | 173 | 0.0659 |
| E396K | G3735A | 105 | 1.01 |